Compound potency records, mixed from different reports. Data source: NIAID ChemDB in PubChem.

Blank or dashed fields: not listed here. MIC bound comes from a single tested concentration. Neighbouring rows are from separate reports. A number after MIC or MFC names an inhibition level or a share of isolates. ICn is the concentration giving n% inhibition. ECn: concentration that inhibits the pathogen or its effect by n%. Inhibition is in % at the dose shown (toxicity tests: loss of growth or viability).

smiles | measure | cell line | dose | organism | test | strain | protein | read by | result
COc1ccc(/C=C/C(=O)c2ccccn2)cc1 | EC50 | - | - | Mycobacterium tuberculosis | culture | - | - | - | >12.5 µg/mL
O=[N+]([O-])c1cc([N+](=O)[O-])c2ccc(S(=O)(=O)O)cc2c1O | inhibition | Human amnion AV3 cells | 10 µg/mL | Herpes simplex virus | culture | - | - | cytopathic effect | 0%
O=C(O)c1ccc2c(c1)C(=O)CC(c1ccccc1)O2 | inhibition | - | 12.5 µg/mL | Mycobacterium tuberculosis | culture | - | - | - | 0%
CSc1ccc(-c2cncc(N3CCN(c4ccc(C)c(C)c4)CC3)n2)cc1 | inhibition | - | 1 µM | Cytomegalovirus | target | - | UL97 kinase | - | <50%
CC(C)c1cc(C(C)C)c(C(=O)Nc2nnc(NC3CCCCCC3)s2)c(C(C)C)c1 | IC50 | - | - | Human cytomegalovirus | target | - | Polymerase | - | >25 µM
O=C(O)CCSCSCCC(=O)O | MIC | - | - | Mycobacterium tuberculosis | culture | H37Rv | - | - | >100 µg/mL
CCCCCCCCCCCNc1nnc(NC(=O)/C=C/c2ccccc2Cl)s1 | IC50 | - | - | Human cytomegalovirus | target | - | Polymerase | - | >25 µM
CC(=O)NNc1nc(C)c(C(/C=C/c2ccc(Cl)cc2)=N/NS(=O)(=O)c2ccc(C)cc2)s1 | inhibition | - | 6.25 µg/mL | Mycobacterium tuberculosis | culture | H37Rv | - | resazurin | -8%
O=C(Nc1nnc(NCc2cccs2)s1)c1cc2ccccc2s1 | IC50 | - | - | Human cytomegalovirus | target | - | Polymerase | - | >25 µM
CN1CCC(O)(/C=C\C(C)(C)O)CC1 | MIC bound | - | - | Mycobacterium tuberculosis | culture | H37Rv | - | resazurin | >6.25 µg/mL
O=C(/C=C/c1ccccc1)Nc1nnc(NC2CCCCCC2)s1 | IC50 | - | - | Human cytomegalovirus | target | - | Polymerase | - | >25 µM
CC(C)=NNC(=O)c1ccc[n+](C)c1 | MIC | - | - | Mycobacterium tuberculosis | culture | H37Rv | - | - | >100 µg/mL
O=C1CC(c2ccccc2)Oc2cc(Br)ccc21 | EC50 | - | - | Mycobacterium tuberculosis | culture | H37Rv | - | - | <12.5 µg/mL
O=S(=O)(O)c1cc(O)c2c(O)c(N=Nc3ccccc3)c(S(=O)(=O)O)cc2c1 | inhibition | Human embryonic lung cells | 5 µg/mL | Adenovirus | culture | TYPE 3 | - | cytopathic effect | 10%
COc1ccccc1N1CCN(c2cncc(-c3ccoc3)n2)CC1 | IC50 | - | - | Cytomegalovirus | target | - | UL97 kinase | - | <10 µM
CSC(=S)NN=C1CCCCC1 | MIC | - | - | Mycobacterium tuberculosis | culture | H37Rv | - | BACTEC | 8 µg/mL
CC1(C)CC(=O)CC(C)(C)N1 | MIC | - | - | Mycobacterium tuberculosis | culture | H37Rv | - | - | >100 µg/mL
CCO/N=C/c1ccc(OCCC2CCN(c3ccc(C)nn3)CC2)cc1 | EC50 | KB | - | Rhinovirus | culture | 106F (LDL receptor group 30) | - | neutral red | 0.272 µM
C[N+](C)(C)CCO | MIC | - | - | Mycobacterium tuberculosis | culture | H37Rv | - | - | >100 µg/mL
O=S(=O)([O-])c1ccc2c(O)cc(S(=O)(=O)[O-])cc2c1 | inhibition | Human amnion AV3 cells | 10 µg/mL | Adenovirus | culture | TYPE 3 | - | cytopathic effect | 0%
N=C1/C(=C/c2ccccc2O)C(=O)NN1C(=O)c1ccncc1 | MIC bound | - | - | Mycobacterium tuberculosis | culture | H37Rv | - | resazurin | <6.25 µg/mL
OCc1ccc(-c2cncc(N3CCN(c4cccc(Cl)c4)CC3)n2)cc1 | inhibition | - | 1 µM | Cytomegalovirus | target | - | UL97 kinase | - | <50%
Cc1nn(C(=S)S)c(C)c1N=Nc1ccc(Br)cc1 | MIC bound | - | - | Mycobacterium tuberculosis | culture | H37Rv | - | BACTEC | >12.5 µg/mL
Nc1ccc2c(O)cc(S(=O)(=O)[O-])cc2c1S(=O)(=O)[O-] | inhibition | Human amnion AV3 cells | 10 µg/mL | Herpes simplex virus | culture | - | - | cytopathic effect | 0%
COP(=O)(OC)OC | MIC | - | - | Mycobacterium tuberculosis | culture | H37Rv | - | - | >100 µg/mL
O=C(NCCN1CCOCC1)c1cn2c(ccc3sc4ccccc4c(=O)c32)n1 | inhibition | - | 12.5 µg/mL | Mycobacterium tuberculosis | culture | H37Rv | - | BACTEC | 0%
O=S(=O)(c1ccc(O)cc1)c1ccc(O)cc1 | MIC | - | - | Mycobacterium tuberculosis | culture | H37Rv | - | - | 100 µg/mL
CC(C)c1cc(C(C)C)c(C(=O)Nc2nnc(NCCC3CCCN3C)s2)c(C(C)C)c1 | IC50 | - | - | Human cytomegalovirus | target | - | Polymerase | - | <25 µM
COc1cc(C[C@H](C)[C@H](C)Cc2ccc(O)c(O)c2)ccc1O | MIC50 | - | - | Candida tropicalis | culture | CCC 131-1997 | - | broth dilution | 31.25 µg/mL
C1=CCc2c(oc3ccccc23)C1 | MIC | - | - | Mycobacterium tuberculosis | culture | H37Rv | - | - | 50 µg/mL
Clc1nc2nsnc2nc1Cl | MIC bound | - | - | Mycobacterium tuberculosis | culture | H37Rv | - | BACTEC | >12.5 µg/mL
C#CC[C@@H](C(=O)N[C@H](/C=C/C(=O)OCC)C[C@@H]1CCNC1=O)n1cccc(NC(=O)c2cc(C)on2)c1=O | EC50 | H1-HELA | - | Rhinovirus | culture | Serotype Hanks | - | cytopathic effect / XTT | 0.013 µM
Nc1nc(CCl)cs1 | MIC bound | - | - | Mycobacterium tuberculosis | culture | H37Rv | - | BACTEC | >6.25 µg/mL
Oc1ccc(-c2cncc(NCc3cccs3)n2)cc1 | IC50 | - | - | Cytomegalovirus | target | - | UL97 kinase | - | <1 µM
c1ccc2ncccc2c1 | MIC | - | - | Mycobacterium tuberculosis | culture | H37Rv | - | - | 25 µg/mL
O=S(=O)([O-])c1cc(S(=O)(=O)[O-])c2cc(NS(=O)(=O)c3ccccc3)ccc2c1 | inhibition | Human amnion AV3 cells | 10 µg/mL | Adenovirus | culture | TYPE 3 | - | cytopathic effect | 0%
Fc1ccc(N2CCCCC2)c(NC(=S)c2ccncc2)c1 | inhibition | - | 10 µM | - | host protein | - | EphA7 | kinase activity | 27%
Cc1cc(=O)c2c(O)cc3c(c2o1)CC=C(COC1OC(COC2OC(CO)C(O)C(O)C2O)C(O)C(O)C1O)CO3 | MIC | - | - | Mycobacterium tuberculosis | culture | H37Rv | - | BACTEC | ≥12.5 µg/mL
N#Cc1ccc(C(=O)Nc2nnc(NCCCNC3CCCCC3)s2)cc1 | IC50 | - | - | Human cytomegalovirus | target | - | Polymerase | - | <25 µM
C=CCC(CCCCCCCCC)C(=O)O | MIC | - | - | Mycobacterium tuberculosis | culture | H37Rv | - | - | >100 µg/mL
CCOC(=O)c1cn(Cc2ccccc2)c(=O)n1Cc1ccccc1 | MIC bound | - | - | Mycobacterium tuberculosis | culture | H37Rv | - | BACTEC | >12.5 µg/mL
CCOC(=O)/C=C/[C@H](C[C@@H]1CCNC1=O)NC(=O)[C@@H](CC(=O)[C@@H](NC(=O)c1cc(C)on1)C(C)C)Cc1ccc(F)cc1 | EC50 | OHIO HELA-I | - | Rhinovirus | culture | Isolate 34 | - | cytopathic effect / visual reading | 0.04 µg/mL
COc1ccc2c(=O)c(-c3c(-c4ccccc4)oc4cc(OC)ccc4c3=O)c(-c3ccccc3)oc2c1 | inhibition | - | 12.5 µg/mL | Mycobacterium tuberculosis | culture | - | - | - | 0%
COCN1C(=O)CN=C(c2ccccc2)c2cc(NO)ccc21 | MIC bound | - | - | Mycobacterium tuberculosis | culture | H37Rv | - | BACTEC | >12.5 µg/mL
O=C(/C(=N/O)c1ccccc1)c1ccccc1 | MIC | - | - | Mycobacterium tuberculosis | culture | H37Rv | - | - | 12.5 µg/mL
O=C1c2ccccc2OC(c2cccc(Cl)c2)C1O | EC50 | - | - | Mycobacterium tuberculosis | culture | - | - | - | <12.5 µg/mL
Cc1ccc(NC(=O)Nc2ccc(C)c(NC(=O)Nc3ccc(C)c(Cl)c3)c2)cc1Cl | MIC bound | - | - | Mycobacterium tuberculosis | culture | H37Rv | - | BACTEC | >12.5 µg/mL
CCOc1ccc2ccccc2c1C=O | MIC | - | - | Mycobacterium tuberculosis | culture | H37Rv | - | - | >100 µg/mL
CS(=O)(=O)C(c1nc2nnc(N)n2[nH]c1=O)c1nc2nnc(N)n2[nH]c1=O | inhibition | - | 12.5 µg/mL | Mycobacterium tuberculosis | culture | H37Rv | - | BACTEC | 8%
COc1cccc(C)c1N | MIC | - | - | Mycobacterium tuberculosis | culture | H37Rv | - | - | >100 µg/mL
Cc1ccc2c(c1)c(=O)c1c(NCCN(C)C)ccc3nnn2c31 | MIC | - | - | Mycobacterium tuberculosis | culture | H37Rv | - | BACTEC | 12.5 µg/mL
O=C1/C(=C2\Sc3cc(Cl)ccc3C2=O)Sc2cc(Cl)ccc21 | MIC | - | - | Mycobacterium tuberculosis | culture | H37Rv | - | - | >100 µg/mL
O[C@H]1[C@H](O)[C@@H](O)CN2CC[C@H](O)[C@H]12 | inhibition | - | 12.5 µg/mL | Mycobacterium tuberculosis | culture | H37Rv | - | BACTEC | 0%
Nc1cccc(Cl)c1 | MIC | - | - | Mycobacterium tuberculosis | culture | H37Rv | - | - | 25 µg/mL
O=C(Nc1cccc([N+](=O)[O-])c1)/C(=N/NC(=O)c1ccncc1)c1nc2ccc([N+](=O)[O-])cc2[nH]c1=O | MIC | VERO | - | Mycobacterium tuberculosis | culture | H37Rv | - | - | 3.64 µg/mL
OCc1ccccc1O | MIC | - | - | Mycobacterium tuberculosis | culture | H37Rv | - | - | >100 µg/mL
O=C1C(Nc2ccccc2)=C(c2ccccc2)C(=O)N1c1ccccc1 | MIC | - | - | Mycobacterium tuberculosis | culture | H37Rv | - | BACTEC | ≥12.5 µg/mL
O=C1CC(c2ccccc2)Oc2ccc(Br)cc21 | inhibition | - | 12.5 µg/mL | Mycobacterium tuberculosis | culture | H37Rv | - | - | 8%
CC(C)C1CC=C(C#N)CC1 | MIC | - | - | Mycobacterium tuberculosis | culture | H37Rv | - | - | >100 µg/mL
O=C(O)O.O=C1C=C(N2CCN(CCO)CC2)C(=O)c2c(N3CCN(CCO)CC3)cc(N3CCN(CCO)CC3)nc21 | inhibition | - | 12.5 µg/mL | Mycobacterium tuberculosis | culture | H37Rv | - | BACTEC | 21%
CCCCOC(=O)/C(CCCC(=O)O)=N/O | MIC | - | - | Mycobacterium tuberculosis | culture | H37Rv | - | - | 100 µg/mL
Nc1ccc2cc(S(=O)(=O)O)cc(S(=O)(=O)O)c2c1 | inhibition | Human amnion AV3 cells | 50 µg/mL | Herpes simplex virus | culture | - | - | cytopathic effect | 0%
N=C(N)SCc1ccc(Br)cc1 | MIC | - | - | Mycobacterium tuberculosis | culture | H37Rv | - | - | >100 µg/mL
FC(F)(F)c1cccc(N2CCN(c3cncc(-c4ccoc4)n3)CC2)c1 | IC50 | - | - | Cytomegalovirus | target | - | UL97 kinase | - | <100 µM
O=C(CO)NCCO | MIC | - | - | Mycobacterium tuberculosis | culture | H37Rv | - | - | >100 µg/mL
NC(=O)c1n[nH]c(=S)[nH]c1=O | MIC bound | - | - | Mycobacterium tuberculosis | culture | H37Rv | - | BACTEC | >12.5 µg/mL
CC(C)(CC(=O)O)C(=O)O | MIC | - | - | Mycobacterium tuberculosis | culture | H37Rv | - | - | >100 µg/mL
CN(C)c1ccc(-c2cncc(N3CCN(c4ccc(Cl)c(Cl)c4)CC3)n2)cc1 | IC50 | - | - | Cytomegalovirus | target | - | UL97 kinase | - | <100 µM